Article PMC9268414, “Screening an In-House Isoquinoline Alkaloids Library for New Blockers of Voltage-Gated Na^+ Channels Using Voltage Sensor Fluorescent Probes: Hits and Biases” (Molecules, 2022)

System: NaV channels endogenously expressed in GH3b6 cells
Assay: FRET voltage sensor probe (VSP) assay of BTX-induced depolarization in GH3b6 cells
Type: cell-based, rat

## Cc1c[nH]c(C)c1C(=O)OC(C)C1=CCC23OCCN(C)CC12CC(O)C12OC4(O)CCC1(C)C(CC=C32)C4 (stereo not drawn) [BTX, batrachotoxin, reference compound]
GH3b6 cells, BTX concentration-response curve
  Hill slope of BTX-induced VSP signal: 1.21 ± 0.26

## NC1=N[C@H](O)[C@H]2[C@H]3O[C@]4(O)O[C@@H]([C@@H](O)[C@@]2(N1)[C@@H]4O)[C@]3(O)CO [TTX, tetrodotoxin, reference compound]
  Hill slope of TTX inhibition of BTX-induced VSP signal: 1.53 ± 41

## thalmiculine [IA49]
GH3b6 cells, BTX 1 µM, n = 6
  Hill Slope, inhibition of BTX-evoked VSP signal: 1.50 ± 0.93
